Results published in patent US6362166B1, “Antipicornaviral compounds and methods for their use and preparation” (Agouron Pharmaceuticals, Inc., priority 1996, dated 2002).

Test system: HRV-14
Test: Antirhinoviral HI-HeLa Cell Culture Assay (Cell Protection Assay, XTT dye reduction)
Type: cell-based, human rhinovirus (HRV) serotype-14
Details: therapeutic index = CC50 divided by EC50; HRV-14, HI-HeLa
Description: In the Cell Protection Assay, the ability of compounds to protect cells against HRV infection was measured by the XTT dye reduction method. This method is described in Weislow, O. S., R. Kiser, D. L. Fine, J. Bader, R. H. Shoemaker, and M. R. Boyd, J. Natl. Cancer Inst. 1989, 81, 577-586, which is incorporated herein by reference.
HI-HeLa cells were infected with HRV-14 at a multiplicity of infection (m.o.i.) of 0.13 (virus particles/cell) or mock-infected with medium only. Infected or mock-infected cells were resuspended at 8×10^5 cells per mL and incubated with appropriate concentration of compounds of formulas I and II. Two days later, XTT/PMS was added to test plates and the amount of formazan produced was quantified spectrophotometrically at 450/650 nm. […] The therapeutic index (TI) was calculated by dividing the CC50 by the EC50.
All strains of human rhinovirus (HRV) for use in this assay were purchased from American Type Culture Collection (ATCC), except for HRV serotype-14, which was produced from the infectious cDNA clone, constructed and supplied to us by Dr. Roland Rueckert at the Institue for Molecular Virology, University of Wisconsin, Madison, Wisc. HRV stocks were propagated, and antiviral assays were perforemd in HI-HeLa cells (ATCC). Cells were grwon in Minimal Essential Medium, available from Life Technologies, with 10% fetal bovine serum.
The compounds were tested against control compounds WIN 51711, WIN 52084, and WIN 54954, all obtained from Sterling-Winthrop Pharmaceuticals, and control compound Pirodavir, obtained from Janssen Pharmaceuticals.

Compound	TI
CCOC(=O)/C=C/[C@H](CCC(N)=O)NC(=O)[C@H](Cc1ccccc1)NC(=O)[C@H](CSCc1ccccc1)NC(=O)OCc1ccccc1 [Compound 165]	>500
CC(C)C[C@H](NC(=O)OCc1ccccc1)C(=O)N[C@@H](Cc1ccccc1)C(=O)N[C@H](/C=C/S(=O)(=O)c1ccccc1)CCC(N)=O [Compound 10, Phenyl-[2-(CBZ-L-Leu-L-Phe-L-Gln)-E-Vinyl]Sulfone]	>2
CC(C)C[C@H](NC(=O)OCc1ccccc1)C(=O)N[C@@H](Cc1ccccc1)C(=O)N[C@H](/C=C/C(=O)N1CCc2cc(Cl)ccc21)CCC(N)=O [Compound 92]	10
CCOC(=O)/C=C/[C@H](CCC(N)=O)NC(=O)[C@H](Cc1ccccc1)NC(=O)[C@H](CC(C)C)NC(=O)SCC [Compound 120]	>695
CC(=O)/C=C/[C@H](CCC(N)=O)NC(=O)[C@H](Cc1ccccc1)NC(=O)[C@H](CC(C)C)NC(=O)OCc1ccccc1 [Compound 13, 4-(CBZ-L-Leu-L-Phe-L-Gln)-E-3-Butene-2-one]	29
CCOC(=O)/C=C/[C@H](CCC(N)=O)NC(=O)[C@H](Cc1ccccc1)NC(=O)[C@H](CCc1ccccc1)NC(=O)SCc1ccccc1 [Compound 162]	>312
CCOC(=O)C=CC(CCC(N)=O)NC(=O)C(Cc1ccccc1)NC(=O)C(NC(=O)OCc1ccccc1)C(C)CC (stereo not shown) [Compound 172]	>126
CCOC(=O)/C=C/[C@H](CCC(=O)NC(c1ccccc1)(c1ccccc1)c1ccccc1)NC(=O)[C@H](Cc1ccccc1)NC(=O)[C@H](CC(C)C)NC(=O)OCc1ccccc1 [Compound 2, Ethyl-3-[CBZ-L-Leu-L-Phe-L-(Tr-Gln)]-E-Propenoate]	>3.2
CC(C)C[C@H](NC(=O)OCc1ccccc1)C(=O)N[C@@H](Cc1ccccc1)C(=O)N[C@H](/C=C/C(=O)OC(C)C)CCC(N)=O [Compound 17, Isopropyl-3-(CBZ-L-Leu-L-Phe-L-Gln)-E-Propenoate]	>56
CCOC(=O)/C=C/[C@H](CCC(N)=O)NC(=O)[C@H](Cc1ccc(OP(=O)(O)O)cc1)NC(=O)[C@H](CC(C)C)NC(=O)OCc1ccccc1 [Compound 105]	>23
CC(C)C[C@H](NC(=O)OCc1ccccc1)C(=O)N[C@@H](Cc1ccccc1)C(=O)N[C@H](/C=C/C=O)CCC(N)=O [Compound 81]	14
CCOC(=O)/C=C/[C@H](CCC(N)=O)NC(=O)[C@H](Cc1ccc(C)cc1)NC(=O)[C@@H](NC(=O)SC1CCCC1)C(C)(C)C [Compound 174, Ethyl-3-[Cyclopentylthiocarbonyl-L-α-(t-Butyl-Gly)-L-(4-Me-Phe)-L-Gln]-E-Propenoate]	>1786
CC(C)C[C@H](NC(=O)OCc1ccccc1)C(=O)N[C@@H](Cc1ccccc1)C(=O)N[C@H](/C=C/C(=O)N1CCc2cc(Br)ccc21)CCC(N)=O [Compound 94]	>7
CCOC(=O)C=CC(CCC(N)=O)NC(=O)C(Cc1ccccc1)NC(=O)C(CCc1ccccc1)NC(=O)OCc1ccccc1 (stereo not shown) [Compound 148]	>1280
CC(C)C[C@H](NC(=O)OCc1ccccc1)C(=O)N[C@@H](Cc1ccccc1)C(=O)N[C@H](/C=C/C(=O)N(C)C)CCC(N)=O [Compound 22, N,N-Dimethyl-3-(CBZ-L-Leu-L-Phe-L-Gln)-E-Propenamide]	>5
CCOC(=O)/C=C/[C@H](CCC(N)=O)NC(=O)[C@H](Cc1ccc(COC)cc1)NC(=O)[C@H](CC(C)C)NC(=O)OCc1ccccc1 [Compound 140]	>8
CCOC(=O)/C=C/[C@H](CC[S+](C)[O-])NC(=O)[C@H](Cc1ccccc1)NC(=O)[C@H](CC(C)C)NC(=O)OCc1ccccc1 (stereo partly drawn) [Compound 12, Ethyl-3-[CBZ-L-Leu-L-Phe-L-Met(sulfoxide)]-E-propenoate]	>63
CC(=O)N1CC/C(=C\[C@H](CCC(N)=O)NC(=O)[C@H](Cc2ccccc2)NC(=O)[C@H](CC(C)C)NC(=O)OCc2ccccc2)C1=O [Compound 164]	>141
CCCS(=O)(=O)N[C@@H](Cc1ccccc1)C(=O)N[C@H](/C=C/C(=O)OCC)CCC(N)=O [Compound 31, Ethyl-3-[N-(Propylsulfonyl)-L-Phe-L-Gln]-E-Propenoate]	>2
